Pooled drug test results. Numbers come from NIAID ChemDB, via PubChem.

Shared fields: counter-tests on host proteins; agent: Human

Rows are shuffled and stem from different studies. Percent inhibition refers to the dose given; in toxicity tests it is the harm to the cells. An empty or dashed field is not shown. ICn is the concentration giving n% inhibition.

SMILES	protein	read by	measure	dose	result
N#CCN(CCn1cnc2c(=O)[nH]c(N)nc21)CCP(=O)(O)O	Hypoxanthine-guanine phosphoribosyltransferase	absorbance	Ki	-	35 µM
C=CCN(C(=O)OCc1ccccc1)C1CCN(CCC(C)(c2ccccc2)C2Nc3ccccc3S(=O)(=O)N2)CC1	CCR1	-	IC50	-	>1 µM
Cc1ccc(-c2ccc3c(c2)C=C(C(=O)Nc2ccc(C[N+](C)(C)C4CCOCC4)cc2)CCC3)cc1	CCR2b	-	IC50	-	0.027 µM
Nc1nc2c(ncn2CCOCCP(=O)(O)O)c(=O)[nH]1	Hypoxanthine-guanine phosphoribosyltransferase	absorbance	Ki	-	1 µM
O=C(Cn1c(-c2cscn2)nc2ccccc21)Nc1ccc2ccccc2c1	IMPDH2	fluorescence / absorbance	IC50	-	≥40 µM
Cc1ccnc2c1NC(=O)c1cccnc1N2C1CC1	DNA polymerase beta	-	IC50	-	>24 µM
O=c1oc(/C=C/C(F)(F)F)ns1	Proteasome	broth dilution / fluorescence	IC50	-	11 µM
Nc1nc2c(ncn2[C@@H]2CNC[C@H]2OCP(=O)(O)O)c(=O)[nH]1	Hypoxanthine-guanine phosphoribosyltransferase	absorbance	Ki	-	0.3 µM
O=c1oc(C#Cc2ccccc2)ns1	Proteasome	broth dilution / fluorescence	IC50	-	9.1 µM
Cn1c(=O)c2c(nc3n2CC(O)CN3c2ccc(O)cc2)n(C)c1=O	DNA polymerase beta	nucleotide incorporation	IC50	-	155 µM
O=C(Cn1c(-c2nccs2)nc2ccccc21)Nc1ccc(Cl)cc1	IMPDH2	fluorescence / absorbance	inhibition	5 µM	≤10%
O=c1[nH]cnc2c1ncn2[C@@H]1CNC[C@H]1OCP(=O)(O)O	Hypoxanthine-guanine phosphoribosyltransferase	absorbance	Ki	-	5.7 µM
O=C(Cn1c(-c2cscn2)nc2ccccc21)Nc1ccc(Br)cc1	IMPDH2	fluorescence / absorbance	IC50	-	≥20 µM
O=c1[nH]cnc2c1ncn2CCOCCP(=O)(O)O	Hypoxanthine-guanine phosphoribosyltransferase	absorbance	Ki	-	3.6 µM

2 of the rows above, restated:

SMILES | protein | read by | measure | dose | result
Cc1ccnc2c1NC(=O)c1cccnc1N2C1CC1 | DNA polymerase beta | - | IC50 | - | >24 µM
O=c1oc(C#Cc2ccccc2)ns1 | Proteasome | broth dilution / fluorescence | IC50 | - | 9.1 µM